In patent publication US10987371B2 (priority 2017, dated 2021):

Tested on: VSV

O=c1c(O[C@@H]2O[C@H](CO)[C@@H](O)[C@H](O)[C@H]2O)c(-c2ccc(O)c(O)c2)oc2cc(O)cc(O)c12 [Q3G, Quercetin-3-β-O-D-glucoside]
effect on wildtype VSV replication (10 μM Q3G only as a pre-treatment (1 h), Vero E6): no effect | decrease of wildtype VSV titers (10 μM Q3G pre-treatment and kept in presence of Q3G throughout replication): 5 logs
